Compound potency records, mixed from different reports. Data source: NIAID ChemDB in PubChem.

Shared fields: tests in culture; agent: Mycobacterium tuberculosis

ECn: concentration that inhibits the pathogen or its effect by n%.

structure | method | strain or isolate | read-out | dose | value
CO[C@H]1/C=C/O[C@@]2(C)Oc3c(C)c(O)c4c(O)c(cc(N=NC(=N)N)c4c3C2=O)NC(=O)/C(C)=C\C=C\[C@H](C)[C@H](O)[C@@H](C)[C@@H](O)[C@@H](C)[C@H](O)[C@@H]1C | - | H37Rv | MIC | - | 0.01 µg/mL
O=C1CCCC2C(O1)C1CCCC(=O)OC21 | BACTEC | H37Rv | MIC bound | - | >12.5 µg/mL
CCCC1CCC2(CC1)SC(C)C(=O)N2NC(=O)C(O)(c1ccccc1)c1ccccc1 | - | H37Rv | inhibition | 6.25 µg/mL | 64%
O=C(/C=C/c1ccc(O)cc1)OC[C@@H]1O[C@H](OC(=O)/C=C/c2ccc(O)cc2)[C@@H](O)[C@@H](O)[C@H]1O | broth dilution / resazurin | ATCC 25177 | MIC | - | 63 µg/mL
Cc1ccc(NC(=S)c2ccccc2)cc1 | - | H37Rv | MIC | - | 375 µM
Clc1ccc(C(Cn2ccnc2)NCc2cccc3ccccc23)c(Cl)c1 | - | CIP103471 | MIC | - | >16 µg/mL
NCC[C@H](O)C(=O)N[C@@H]1C[C@H](N)[C@@H](O[C@H]2O[C@H](CN)[C@@H](O)[C@H](O)[C@H]2O)[C@H](O)[C@H]1O[C@H]1O[C@H](CO)[C@@H](O)[C@H](N)[C@H]1O | - | BCG | MIC | - | 0.13 µg/mL
CO[C@H]1/C=C/O[C@@]2(C)Oc3c(C)c(O)c4c(O)c(c(CN5CCCC5)c(O)c4c3C2=O)NC(=O)/C(C)=C\C=C\[C@H](C)[C@H](O)[C@@H](C)[C@@H](O)[C@@H](C)[C@H](OC(C)=O)[C@@H]1C | - | H37Rv | MIC | - | 0.05 µg/mL
Fc1ccc(C(Cn2ccnc2)NC/C=C/c2ccccc2)cc1 | - | CIP103471 | MIC | - | 8 µg/mL
Cc1cc[n+](CC(=O)c2ccc(F)cc2)cc1.[Br-] | resazurin | H37Rv | EC50 | - | 8 µg/mL
Cc1nnc2c([N+](=O)[O-])c(N)c(Cl)nn12 | BACTEC | H37Rv | MIC bound | - | >12.5 µg/mL
COc1ccc(NC(=S)c2ccc(C)cc2)cc1 | - | H37Rv | MIC | - | 250 µM
Cc1ccc2c(c1)-c1nc3nnnn3nc1C(C)(C)O2 | BACTEC | H37Rv | inhibition | 12.5 µg/mL | 0%
NNC(=O)c1ccncc1 | - | - | MIC | - | 0.06 µg/mL
CCN(CC)CCOC(=O)c1c(C)oc2cc3c(C(=O)OCCN(CC)CC)c(C)oc3cc12 | BACTEC | H37Rv | MIC bound | - | >12.5 µg/mL
CC1CN(c2cc3nc4n(c(=O)c3cc2F)-c2ccc(C(=O)O)cc2C4=O)CCN1 | - | H37Rv | MIC | - | >8 µg/mL
CC1CCC2(CC1)SC(C)C(=O)N2NC(=O)C(O)(c1ccccc1)c1ccccc1 | - | H37Rv | inhibition | 6.25 µg/mL | 36%
CCOC(=O)c1ccc(N2CCN(CCn3c(-c4ccc(C)cc4)nc4cc(C(=O)OCC)ccc43)CC2)c(N)c1 | resazurin | H37Rv | MIC | - | 6.195 µM
S=C(Nc1ccc(C2CCCCC2)cc1)c1cccc(Br)c1 | - | H37Rv | MIC | - | 15 µM
CC1CCC2(CC1)SCC(=O)N2NC(=O)C(O)(c1ccccc1)c1ccccc1 | - | H37Rv | inhibition | 6.25 µg/mL | 0%
NNC(=O)CNc1ccc2ccccc2c1 | - | H37Rv | inhibition | 1 µg/mL | 100%
Fc1ccc(C(Cn2ccnc2)NCc2cccc3ccccc23)cc1 | - | CIP103471 | MIC | - | >16 µg/mL
Cc1oc2c(C)c3oc(=O)cc(C)c3cc2c1CN | resazurin | H37Rv | inhibition | 6.25 µg/mL | 56%
O=C1c2ccc(Cl)cc2-n2c1nc1ncccc1c2=O | - | H37Rv | MIC | - | 0.13 µg/mL
Cc1c2c3c(c4ocnc14)[C@@H](C)CC[C@@H]3[C@@H](C)[C@@H]2/C=C/C(C)(C)O | - | H37Rv | MIC | - | 61 µg/mL
OCCN(CCO)C(=S)S | BACTEC | H37Rv | MIC bound | - | >12.5 µg/mL
COc1cccc2c1C(=O)c1ccc3cc(C)cc(O)c3c1C2=O | GFP | H37Ra | EC50 | - | 19.7 µM
CN[C@@H]1[C@H](O[C@H]2[C@H](O[C@H]3[C@H](O)[C@@H](O)[C@H](N=C(N)N)[C@@H](O)[C@@H]3N=C(N)N)O[C@@H](C)[C@]2(O)C=O)O[C@@H](CO)[C@H](O)[C@H]1O | - | BCG | MBC | - | 0.25 µg/mL
CCCCc1c(O)c(N=NC(=N)N)c2ccccc2c1O | BACTEC | H37Rv | MIC | - | ≥12.5 µg/mL
Cc1ccc(C(=S)Nc2ccccc2)cc1 | - | H37Rv | MIC | - | 125 µM
C=C1CCC(OC(C)=O)C2(C)C(OC(C)=O)CC3OC3(C)C2C(OC(C)=O)C2C(C)C(=O)OC2C1Cl | BACTEC | H37Rv | MIC bound | - | >12.5 µg/mL
CO[C@H]1/C=C/O[C@@]2(C)Oc3c(C)c(O)c4c(O)c(c(/C=N/N5CCOCC5)c(O)c4c3C2=O)NC(=O)/C(C)=C\C=C\[C@H](C)[C@H](O)[C@@H](C)[C@@H](O)[C@@H](C)[C@H](O)[C@@H]1C | - | H37Rv | MIC | - | 0.2 µg/mL
CC1=C(C)C(=O)C(CC[C@](C)(O)CCC[C@H](C)CCC[C@H](C)CCCC(C)C)=C(C)C1=O | agar | H37Rv | MIC | - | 56.1 µM
C[C@@H]1CCC2C(C)(C)CCC[C@]2(C)[C@@]12CCC(=O)O2 | BACTEC | H37Rv | MIC | - | 25 µg/mL
S=C(Nc1ccc(Cl)cc1)c1ccccc1 | - | H37Rv | MIC | - | 61.9 µM
CCCCCCCCc1ccc2c(c1)C(=O)c1nc3ccncc3c(=O)n1-2 | - | H37Rv | MIC | - | ≤0.015 µg/mL
Cc1ccc(NC(=S)c2ccc(Cl)cc2)cc1 | - | H37Rv | MIC | - | 61.9 µM
O=C1c2cc(OC(F)(F)F)ccc2-n2c1nc1cc(F)ccc1c2=O | - | H37Rv | MIC | - | 0.03 µg/mL
CCc1nc2c([nH]1)C(=O)c1ccccc1C2=O | BACTEC | H37Rv | MIC bound | - | >12.5 µg/mL
O=C(NN1CCN(c2cc3c(cc2F)c(=O)c(C(=O)O)cn3C2CC2)CC1)c1ccc(OC(F)(F)F)cc1 | fluorescence | H37Rv | MIC90 | - | >50 µM
O=C1C(Nc2ccccc2)=CC(c2ccccc2)N1c1ccccc1 | BACTEC | H37Rv | MIC | - | ≥12.5 µg/mL
O=C(O)c1cn(C2CC2)c2cc(N3CCN(/N=C/c4cccc(F)c4)CC3)c(F)cc2c1=O | fluorescence | H37Rv | MIC90 | - | 1.45 µM
OC[C@H]1O[C@H](OC[C@H]2O[C@H](O[C@]3(CO)O[C@H](CO)[C@@H](O)[C@@H]3O)[C@H](O)[C@@H](O)[C@@H]2O)[C@H](O)[C@@H](O)[C@H]1O | BACTEC | H37Rv | inhibition | 12.5 µg/mL | 0%
Clc1ccc(C(Cn2ccnc2)NCc2ccc(-c3ccccc3)cc2)c(Cl)c1 | - | CIP103471 | MIC | - | 8 µg/mL
O=c1ccc2cc3ccoc3c(OCCOCCOCCOCCOc3c4occc4cc4ccc(=O)oc34)c2o1 | BACTEC | H37Rv | MIC bound | - | >12.5 µg/mL
CC[C@@H](CO)NCCN[C@@H](CC)CO | agar | H37Rv | MIC | - | 30.6 µM
O=C(NN1CCN(c2cc3c(cc2F)c(=O)c(C(=O)O)cn3C2CC2)CC1)c1cccc2c1B(O)OC2 | fluorescence | H37Rv | MIC90 | - | >50 µM
Clc1ccc(C(Cn2ccnc2)NCc2ccc(-c3ccccc3)cc2)cc1 | - | CIP103471 | MIC | - | 2 µg/mL
CCOP(=O)(OCC)Oc1cnn(C)c(=O)c1SCC | BACTEC | H37Rv | inhibition | 12.5 µg/mL | 13%
COc1ccc(NC(=S)c2ccc(OC)cc2)cc1 | - | H37Rv | MIC | - | 61.9 µM
Cc1c2ncccc2cc2oc3ccccc3c(=O)c12 | BACTEC | H37Rv | inhibition | 12.5 µg/mL | 73%
CC(CC(=O)NN)Nc1ccc2ccccc2c1 | - | H37Rv | EC50 | - | 5 µg/mL
NNC(=O)c1ccncc1 | GFP | H37Ra | MIC | - | 0.69 µM
C[C@@H]1CN(c2c(F)c(N)c3c(=O)c(C(=O)O)cn(C4CC4)c3c2F)C[C@H](C)N1 | - | 139 strains | Median MIC50 | - | 0.1 µg/mL
CCCN(CCC)/N=C/c1c2c(O)c3c(O)c(C)c4c(c3c1O)C(=O)[C@@](C)(O/C=C/[C@H](OC)[C@@H](C)[C@@H](OC(C)=O)[C@H](C)[C@H](O)[C@H](C)[C@@H](O)[C@@H](C)/C=C/C=C(/C)C(=O)N2)O4 | - | H37Rv | MIC | - | 0.05 µg/mL
CC1CCCC2(C1)SC(C)C(=O)N2NC(=O)C(O)(c1ccccc1)c1ccccc1 | - | H37Rv | inhibition | 6.25 µg/mL | 1%
CCOC(=O)c1ccc(N2CCN(CCn3c(-c4ccc5c(c4)OCO5)nc4cc(C(=O)OCC)ccc43)CC2)c(N)c1 | resazurin | H37Rv | MIC | - | 6.219 µM
CN1c2ccccc2Sc2cc(/C=C3/SC(=S)NC3=O)ccc21 | BACTEC | H37Rv | MIC bound | - | >12.5 µg/mL
OC[C@H]1O[C@@H](O)C[C@@H](O)[C@@H]1O | agar | H37Rv | MIC | - | 341.5 µM
Clc1ccc(C(Cn2ccnc2)NC/C=C/c2ccccc2)c(Cl)c1 | - | CIP103471 | MIC | - | 8 µg/mL
O=C1CSC2(CCC(c3ccccc3)CC2)N1NC(=O)C(O)(c1ccccc1)c1ccccc1 | - | H37Rv | inhibition | 6.25 µg/mL | 31%
COc1cc(O)c2c(O)c3c(=O)cc(C)oc3cc2c1 | BACTEC | H37Rv | inhibition | 12.5 µg/mL | 94%
COc1ccc(C(=S)Nc2ccccc2)cc1 | - | H37Rv | MIC | - | 61.9 µM
O=C1c2cc(I)ccc2-n2c1nc1ncccc1c2=O | - | TN1040RFLP:N (DRUG sensitive) | MIC | - | 0.06 µg/mL
O=[N+]([O-])c1cc2[nH]cnc2c([N+](=O)[O-])c1NCc1ccccc1 | resazurin | H37Rv | inhibition | 6.25 µg/mL | -15%
O=C(O)c1cn(C2CC2)c2cc(N3CCN(/N=C/c4ccc(Cl)cc4)CC3)c(F)cc2c1=O | fluorescence | H37Rv | MIC90 | - | 1.77 µM
CC(=O)Oc1cc(-c2ccc3c(c2)C2(C)c4cc(OC(C)=O)c5ccccc5c4OC2(C)N3C)c(OC(C)=O)c2ccccc12 | BACTEC | H37Rv | MIC bound | - | >12.5 µg/mL
C/C=C/C/C=C/CCC(=O)[C@H]1O[C@H]1C(N)=O | - | - | MIC | - | 3–6.25 µg/mL
CCOC(=O)c1ccc(N2CCN(CCn3c(-c4ccc(Cl)cc4)nc4cc(C(=O)OCC)ccc43)CC2)c(N)c1 | resazurin | H37Rv | MIC | - | 0.195 µM
N[C@@H]1CONC1=O | - | BCG | MIC | - | 8 µg/mL
O=C1c2ccccc2-n2c1nc1ccc(OP(=O)(O)O)cc1c2=O | - | H37Rv | MIC | - | >8 µg/mL
CCC1CCC2(CC1)SCC(=O)N2NC(=O)C(O)(c1ccccc1)c1ccccc1 | - | H37Rv | inhibition | 6.25 µg/mL | 26%
CCN(CC)C(=O)COc1cc2c(O)c3c(O)c(C)c4c(c13)C(=O)[C@@](C)(O/C=C/[C@H](OC)[C@@H](C)[C@@H](O)[C@H](C)[C@H](O)[C@H](C)[C@@H](O)[C@@H](C)/C=C/C=C(/C)C(=O)N2)O4 | - | H37Rv | MIC | - | 0.5 µg/mL
O=C(O)C(Cc1ccc(I)cc1)Nc1nc(-c2ccc(Cl)c(Cl)c2)cs1 | broth dilution | H37Rv | MIC99 | - | >100 µg/mL
CC1SC2(CCCCC2)N(NC(=O)C(O)(c2ccccc2)c2ccccc2)C1=O | - | H37Rv | inhibition | 6.25 µg/mL | 0%
N#Cc1c(C(=O)NN)c2c(-c3ccc4ccccc4c3)n[nH]c(=O)c2[nH]c1=O | BACTEC | H37Rv | MIC bound | - | >12.5 µg/mL
CC1CCCCC12SCC(=O)N2NC(=O)C(O)(c1ccccc1)c1ccccc1 | - | H37Rv | inhibition | 6.25 µg/mL | 0%
O=c1cc(-c2ccccc2)c2nc3cc(Cl)ccc3sc-2c1-c1ccccc1 | BACTEC | H37Rv | MIC bound | - | >12.5 µg/mL
CO[C@H]1/C=C/O[C@@]2(C)Oc3c(C)c(O)c4c(O)c(c(C=Nc5ccccc5)c(O)c4c3C2=O)NC(=O)/C(C)=C\C=C\[C@H](C)[C@H](O)[C@@H](C)[C@@H](O)[C@@H](C)[C@H](OC(C)=O)[C@@H]1C | - | H37Rv | MIC | - | 5 µg/mL

The last 7 rows once more:

{"structure": "CCN(CC)C(=O)COc1cc2c(O)c3c(O)c(C)c4c(c13)C(=O)[C@@](C)(O/C=C/[C@H](OC)[C@@H](C)[C@@H](O)[C@H](C)[C@H](O)[C@H](C)[C@@H](O)[C@@H](C)/C=C/C=C(/C)C(=O)N2)O4", "strain or isolate": "H37Rv", "read-out": "MIC", "value": "0.5 µg/mL"}
{"structure": "O=C(O)C(Cc1ccc(I)cc1)Nc1nc(-c2ccc(Cl)c(Cl)c2)cs1", "method": "broth dilution", "strain or isolate": "H37Rv", "read-out": "MIC99", "value": ">100 µg/mL"}
{"structure": "CC1SC2(CCCCC2)N(NC(=O)C(O)(c2ccccc2)c2ccccc2)C1=O", "strain or isolate": "H37Rv", "read-out": "inhibition", "dose": "6.25 µg/mL", "value": "0%"}
{"structure": "N#Cc1c(C(=O)NN)c2c(-c3ccc4ccccc4c3)n[nH]c(=O)c2[nH]c1=O", "method": "BACTEC", "strain or isolate": "H37Rv", "read-out": "MIC bound", "value": ">12.5 µg/mL"}
{"structure": "CC1CCCCC12SCC(=O)N2NC(=O)C(O)(c1ccccc1)c1ccccc1", "strain or isolate": "H37Rv", "read-out": "inhibition", "dose": "6.25 µg/mL", "value": "0%"}
{"structure": "O=c1cc(-c2ccccc2)c2nc3cc(Cl)ccc3sc-2c1-c1ccccc1", "method": "BACTEC", "strain or isolate": "H37Rv", "read-out": "MIC bound", "value": ">12.5 µg/mL"}
{"structure": "CO[C@H]1/C=C/O[C@@]2(C)Oc3c(C)c(O)c4c(O)c(c(C=Nc5ccccc5)c(O)c4c3C2=O)NC(=O)/C(C)=C\\C=C\\[C@H](C)[C@H](O)[C@@H](C)[C@@H](O)[C@@H](C)[C@H](OC(C)=O)[C@@H]1C", "strain or isolate": "H37Rv", "read-out": "MIC", "value": "5 µg/mL"}

Blank or dashed fields: not listed here. Inhibition is in % at the dose shown (toxicity tests: loss of growth or viability). a–b is a range or a potency band. A number after MIC or MFC names an inhibition level or a share of isolates. Neighbouring rows are from separate reports. MIC bound: limit read from a one-dose screen.